Measured values from several laboratories, pooled; numbers as filed in NIAID ChemDB.

Shared fields: target-level tests; agent: HIV-1; protein: Reverse transcriptase

Two numbers with a dash give a range or band. ICn: concentration for n% inhibition. An empty or dashed field is not shown. Rows are shuffled and stem from different studies.

SMILES,measure,read by,changes,strain,value
CC(C)(C)c1ccc(-n2nnnc2SCC(=O)Nc2ccc(S(=O)(=O)Nc3ccccc3)cc2Cl)c(Cl)c1,IC50,PicoGreen / fluorescence,RT-K103 Y181C,-,<1 µM
CCc1cc(CCc2nc3ccccc3o2)c(=O)[nH]c1C,IC50,nucleotide incorporation,RT-K103N Y188C,-,>39 µM
CCN1c2ncc(CCOc3cccc4c3ccc[n+]4[O-])cc2C(=O)Nc2c(C)cc(Cl)nc21,IC50,nucleotide incorporation / radiometric,RT-K103N V108I,-,0.056 µM
CCN1c2ncc(CCc3cccc(N)c3)cc2C(=O)N(C)c2ccc(Cl)nc21,IC50,nucleotide incorporation / radiometric,RT-Y181C,-,<1 µM
CCN1C(=O)c2cc(Cl)nnc2N(CC)c2ccc(C)cc21,IC50,-,-,-,~330 µM
CCOC(=O)CCNC(=O)c1ccc(NC(=O)CSc2nnc(Br)n2-c2ccc(CC)c3ccccc23)c(Cl)c1,IC50,nucleotide incorporation / radiometric,RT-Y181C,-,<0.05 µM
CS(=O)(=O)NC(=O)c1ccc(NC(=O)CSc2nnnn2-c2ccc(C3CC3)cc2Cl)c(Cl)c1,IC50,PicoGreen / fluorescence,-,WT,<1 µM
COc1ccc2c(C3CC3)ccc(-n3c(Br)nnc3SCC(=O)Nc3ccc(S(N)(=O)=O)cc3Cl)c2c1,IC50,nucleotide incorporation / radiometric,RT-Y188L,-,0.05–0.1 µM
CN(C)CCCC(=O)NC(C)(C)C#Cc1ccc(NC(=O)CSc2nnnn2-c2cc(C(F)(F)F)ccc2Cl)c(Cl)c1,IC50,PicoGreen / fluorescence,-,WT,<1 µM
CCN1c2ncc(CCOc3ccc(C(=O)O)c4ccccc34)cc2C(=O)Nc2c(C)cc(F)nc21,IC50,nucleotide incorporation / radiometric,RT-K103N Y181C,-,0.1–1 µM
CCN1c2ncc(CCc3ccnc(C(N)=O)c3)cc2C(=O)N(C)c2ccc(Cl)nc21,IC50,nucleotide incorporation / radiometric,-,WT,<1 µM
O=c1cc(Cc2ccccc2)nc(NCCCCO)[nH]1,Ki,-,RT-Y181L,-,>1000 µM
CC(C)Oc1ccc(Cl)c(-n2nnnc2SCC(=O)Nc2ccc(C#CC(C)(C)C(=O)O)cc2Cl)c1,IC50,PicoGreen / fluorescence,RT-K103 Y181C,-,<1 µM
O=C(O)CCNC(=O)c1ccc(NC(=O)CSc2nnc(Br)n2-c2ccc(C3CC3)c3ccccc23)c(Cl)c1,IC50,nucleotide incorporation / radiometric,RT-Y181C,-,<0.05 µM
CC(C)(C#Cc1ccc(NC(=O)CSc2nnnn2-c2ccc(C3CC3)cc2Cl)c(Cl)c1)NC(=O)CCC(=O)O,IC50,PicoGreen / fluorescence,RT-K103 Y181C,-,<1 µM
CCCN1c2ccccc2N(CC)C(=O)c2ccnnc21,IC50,-,-,-,<330 µM
CC(C)(N)C#Cc1ccc(NC(=O)CSc2nnnn2-c2ccc(C3CC3)cc2Cl)c(Cl)c1F,IC50,PicoGreen / fluorescence,RT-K103 Y181C,-,<1 µM
NS(=O)(=O)c1ccc(NC(=O)CSc2nnc(C(F)F)n2-c2ccc(C3CC3)c3ccccc23)c(Cl)c1,IC50,nucleotide incorporation / radiometric,RT-Y188L,-,>0.1 µM
CCN1c2ncc(CCOc3ccc(NC(=O)C4CC4C(=O)O)cc3C)cc2C(=O)N(C)c2cccnc21,IC50,nucleotide incorporation / radiometric,-,IIIB,<0.05 µM
NS(=O)(=O)c1ccc(NC(=O)CSc2nnc(Br)n2-c2ccc(C3CC3)c3c2CCCC3)c(Cl)c1,IC50,nucleotide incorporation / radiometric,RT-Y188L,-,>0.1 µM
COc1ccccc1CC(=O)Nc1ccc(NC(=O)CSc2nnnn2-c2ccc(C(C)(C)C)cc2Cl)c(Cl)c1,IC50,PicoGreen / fluorescence,-,WT,<1 µM
CCN1c2ncc(CC(O)c3ccncc3)cc2C(=O)N(C)c2cccnc21,IC50,nucleotide incorporation / radiometric,RT-Y181C,-,>1 µM
Nc1ccn([C@H]2CC[C@@H](COP(=O)(O)OP(=O)(O)OP(=O)(O)O)O2)c(=O)n1,IC50,nucleotide incorporation / radiometric,RT-V75I,-,1.4 µM
CCN1c2ncc(CCOc3ccc(CC(=O)O)c4ccccc34)cc2C(=O)Nc2c(C)cc(F)nc21,IC50,nucleotide incorporation / radiometric,RT-Y188L,-,>1 µM
CCN1c2ncc(CCOc3ccc(NS(C)(=O)=O)cc3C)cc2C(=O)N(C)c2cccnc21,IC50,nucleotide incorporation / radiometric,RT-K103N Y181C,IIIB,<0.05 µM
CCc1ccc(-n2c(Br)nnc2SCC(=O)Nc2ccc(C(=O)NCCC#N)cc2Cl)c2ccccc12,IC50,nucleotide incorporation / radiometric,RT-Y188L,-,0.05–0.1 µM
CCN1c2ncc(CCOc3ccc(-c4cc(C(=O)O)ccc4C)cc3C)cc2C(=O)N(C)c2cccnc21,IC50,nucleotide incorporation / radiometric,RT-K103N Y181C,IIIB,>0.1 µM
Cc1cc(S(N)(=O)=O)ccc1NC(=O)CSc1nnc(C(F)F)n1-c1cccc2c(C#N)cccc12,IC50,nucleotide incorporation / radiometric,RT-Y181C,-,>0.1 µM
CCN1c2ncc(CCOc3ccc(-c4ccc(CC(=O)O)cc4C)cc3C)cc2C(=O)N(C)c2cccnc21,IC50,nucleotide incorporation / radiometric,RT-K103N Y181C,IIIB,0.05–0.1 µM
CCN1c2ncc(CCOc3ccc(C(=O)O)c4c3CCN(C(=O)N(C)C)C4)cc2C(=O)N(C)c2cccnc21,IC50,nucleotide incorporation / radiometric,RT-Y188L,-,0.1–1 µM
CCc1ccc(-n2c(Br)nnc2SCC(=O)Nc2ccc(C(=O)NCC(O)CO)cc2Cl)c2ccccc12,IC50,nucleotide incorporation / radiometric,RT-Y188L,-,>0.1 µM
CCN1c2ncc(CCOc3ccc(-c4cc(F)c(O)c(F)c4)cc3C)cc2C(=O)N(C)c2cccnc21,IC50,nucleotide incorporation / radiometric,-,IIIB,<0.05 µM
CC(C)NS(=O)(=O)c1ccc(NC(=O)CSc2nnnn2-c2ccc(C(C)(C)C)cc2Cl)c(Cl)c1,IC50,PicoGreen / fluorescence,RT-K103 Y181C,-,<1 µM
CCc1ccc(-n2c(Br)nnc2SCC(=O)Nc2ccc(C(=O)N[C@@H](CO)C(=O)OC)cc2Cl)c2ccccc12,IC50,nucleotide incorporation / radiometric,-,-,<0.05 µM
COC(=O)NCCCCNc1nc(Cc2ccccc2)c(C)c(=O)[nH]1,Ki,-,RT-Y188L,-,>1000 µM
O=C(CSc1nnc(Br)n1-c1ccc(C2CC2)c2ccccc12)Nc1ccc(C(=O)O)cc1Cl,IC50,nucleotide incorporation / radiometric,RT-Y188L,-,0.05–0.1 µM
CCCN1C(=O)c2ccnnc2N(CC)c2ccc(C)cc21,IC50,-,-,-,<330 µM
CC(C)(C)c1ccc(-n2nnnc2SCC(=O)Nc2ccc(OCC(=O)NCCC(=O)O)cc2Cl)c(Cl)c1,IC50,PicoGreen / fluorescence,-,WT,<1 µM
CCN1c2ncc(C3(c4ccccc4)CO3)cc2C(=O)N(C)c2ccc(Cl)nc21,IC50,nucleotide incorporation / radiometric,RT-Y181C,-,<1 µM
Cc1ccc2c(C)ccc(-n3c(Br)nnc3SCC(=O)Nc3ccc(S(N)(=O)=O)cc3Br)c2c1,IC50,nucleotide incorporation / radiometric,RT-Y188L,-,0.05–0.1 µM
CC(C)(C#Cc1ccc(NC(=O)CSc2nnnn2-c2ccc(C3CC3)cc2Cl)c(Cl)c1)NC(=O)CN=c1ccn(O)cc1,IC50,PicoGreen / fluorescence,RT-K103 Y181C,-,<1 µM
COc1ccc2c(C)ccc(-n3c(Br)nnc3SCC(=O)Nc3ccc(S(N)(=O)=O)cc3Br)c2c1,IC50,nucleotide incorporation / radiometric,RT-Y181C,-,<0.05 µM
CC(=O)NC(C)(C)C#Cc1ccc(NC(=O)CSc2nnnn2-c2ccc(C3CC3)cc2Cl)c(Cl)c1,IC50,PicoGreen / fluorescence,-,WT,<1 µM
Cc1ccc2c(c1)N(C)C(=O)c1ccnnc1N2C1CC1,IC50,-,-,-,<330 µM
CC(C)(C#Cc1ccc(NC(=O)CSc2nnnn2-c2ccc(C3CC3)cc2Cl)c(Cl)c1)NS(C)(=O)=O,IC50,PicoGreen / fluorescence,RT-K103 Y181C,-,<1 µM
CCN1c2ncc(CCOc3ccc(/C=C(\C)C(=O)O)c4ccccc34)cc2C(=O)Nc2c(C)cc(Cl)nc21,IC50,nucleotide incorporation / radiometric,-,WT,<0.1 µM
CN(C)CCCNC(=O)C(C)(C)C#Cc1ccc(NC(=O)CSc2nnnn2-c2ccc(C3CC3)cc2Cl)c(Cl)c1,IC50,PicoGreen / fluorescence,RT-K103 Y181C,-,<1 µM
NS(=O)(=O)c1ccc(NC(=O)CSc2nnc(Cl)n2-c2ccc(C3CC3)c3ccccc23)c(Cl)c1,IC50,nucleotide incorporation / radiometric,RT-Y188L,-,>0.1 µM
CC(C)(C)c1ccc(-n2nnnc2SCC(=O)Nc2ccc(C(=O)Nc3ccc(C(=O)O)cc3)cc2Cl)c(Cl)c1,IC50,PicoGreen / fluorescence,-,WT,<1 µM
Cc1ccc(-n2c(C)nnc2SCC(=O)Nc2ccc(S(N)(=O)=O)cc2Cl)c2c1CCCC2,IC50,nucleotide incorporation / radiometric,RT-Y188L,-,>0.1 µM
Cc1cn([C@H]2CC[C@@H](COP(=O)(O)OP(=O)(O)OP(=O)(O)O)O2)c(=O)[nH]c1=O,Ki,nucleotide incorporation / radiometric,RT-A62V V75I F77L F116Y Q151M,-,0.61 µM
CCN1c2ncc(CCOc3ccc(C(=O)Nc4ccc[n+]([O-])c4)cc3C)cc2C(=O)N(C)c2cccnc21,IC50,nucleotide incorporation / radiometric,-,IIIB,<0.05 µM
NCCCCNc1nc(Cc2ccccc2)cc(=O)[nH]1,Ki,-,RT-V179D,-,>1000 µM
CCN1c2ncc(CCOc3ccc(Nc4nc(C(=O)O)cs4)cc3C)cc2C(=O)N(C)c2cccnc21,IC50,nucleotide incorporation / radiometric,RT-K103N Y181C,IIIB,0.05–0.1 µM
Cc1cc(S(=O)(=O)O)ccc1NC(=O)CSc1nnc(C(F)F)n1-c1ccc(C)c2c1CCCC2,IC50,nucleotide incorporation / radiometric,RT-Y181C,-,>0.1 µM
CC(C)(C)c1ccc(-n2nnnc2SCC(=O)Nc2ccc(C#CC3(O)CCC3)cc2Cl)c(Cl)c1,IC50,PicoGreen / fluorescence,-,WT,<1 µM
CCN1c2ncc(CCOc3ccc(NC(=O)/C=C/C(=O)O)cc3C)cc2C(=O)N(C)c2cccnc21,IC50,nucleotide incorporation / radiometric,-,IIIB,<0.05 µM
Cc1ccc(-c2c(OCC(=O)Nc3ccc(C#CC(C)(C)C(=O)O)cc3Cl)n[nH]c2C)c(Cl)c1,IC50,PicoGreen / fluorescence,-,WT,<1 µM
CCN1c2ncc(CCOc3ccc(CC(C)C(=O)O)c4ccccc34)cc2C(=O)Nc2c(C)ccnc21,IC50,nucleotide incorporation / radiometric,-,WT,<0.1 µM
CC(C)(C#Cc1ccc(NC(=O)CSc2nnnn2-c2ccc(C3CC3)cc2Cl)c(Cl)c1)NC(=O)C1CC1,IC50,PicoGreen / fluorescence,RT-K103 Y181C,-,<1 µM
Cc1cc(S(N)(=O)=O)ccc1NC(=O)CSc1nnc(CF)n1-c1c(C)cc(C)c2ccccc12,IC50,nucleotide incorporation / radiometric,RT-Y181C,-,>0.1 µM
CC(C)(C#Cc1ccc(NC(=O)CSc2nnnn2-c2ccc(C3CC3)cc2Cl)c(Cl)c1)OCCN1CCNCC1,IC50,PicoGreen / fluorescence,RT-K103 Y181C,-,<1 µM
CCc1ccc(-n2c(Br)nnc2SCC(=O)Nc2ccc(C(=O)NCC(=O)O)cc2Cl)c2ccccc12,IC50,nucleotide incorporation / radiometric,RT-Y188L,-,>0.1 µM
CC(C)(C#Cc1ccc(NC(=O)CSc2nnnn2-c2cc(C(F)(F)F)ccc2Cl)c(Cl)c1F)C(=O)O,IC50,PicoGreen / fluorescence,-,WT,<1 µM
NS(=O)(=O)c1ccc(NC(=O)CSc2nnc(Br)n2-c2ccc(C3CC3)cc2Cl)c(Cl)c1,IC50,nucleotide incorporation / radiometric,-,-,<0.05 µM
CCN1c2ncc(CCOc3ccc(C(=O)O)c4c3CCC4)cc2C(=O)N(C)c2cccnc21,IC50,nucleotide incorporation / radiometric,RT-V106A,-,0.1–1 µM
CC(C)CCC(=O)Nc1ccc(NC(=O)CSc2nnnn2-c2ccc(C(C)(C)C)cc2Cl)c(Cl)c1,IC50,PicoGreen / fluorescence,RT-K103 Y181C,-,<1 µM
Cc1cc(S(N)(=O)=O)ccc1NC(=O)CSc1nnc(Br)n1-c1ccc(F)c2ccccc12,IC50,nucleotide incorporation / radiometric,RT-Y188L,-,>0.1 µM

A second listing of 10 rows from above:

SMILES,measure,read by,changes,strain,value
CCN1c2ncc(CC(O)c3ccncc3)cc2C(=O)N(C)c2cccnc21,IC50,nucleotide incorporation / radiometric,RT-Y181C,-,>1 µM
CCc1cc(CCc2nc3ccccc3o2)c(=O)[nH]c1C,IC50,nucleotide incorporation,RT-K103N Y188C,-,>39 µM
CC(C)CCC(=O)Nc1ccc(NC(=O)CSc2nnnn2-c2ccc(C(C)(C)C)cc2Cl)c(Cl)c1,IC50,PicoGreen / fluorescence,RT-K103 Y181C,-,<1 µM
CCOC(=O)CCNC(=O)c1ccc(NC(=O)CSc2nnc(Br)n2-c2ccc(CC)c3ccccc23)c(Cl)c1,IC50,nucleotide incorporation / radiometric,RT-Y181C,-,<0.05 µM
CS(=O)(=O)NC(=O)c1ccc(NC(=O)CSc2nnnn2-c2ccc(C3CC3)cc2Cl)c(Cl)c1,IC50,PicoGreen / fluorescence,-,WT,<1 µM
CCCN1c2ccccc2N(CC)C(=O)c2ccnnc21,IC50,-,-,-,<330 µM
COc1ccccc1CC(=O)Nc1ccc(NC(=O)CSc2nnnn2-c2ccc(C(C)(C)C)cc2Cl)c(Cl)c1,IC50,PicoGreen / fluorescence,-,WT,<1 µM
CCN1c2ncc(CCOc3ccc(-c4cc(F)c(O)c(F)c4)cc3C)cc2C(=O)N(C)c2cccnc21,IC50,nucleotide incorporation / radiometric,-,IIIB,<0.05 µM
CCN1c2ncc(C3(c4ccccc4)CO3)cc2C(=O)N(C)c2ccc(Cl)nc21,IC50,nucleotide incorporation / radiometric,RT-Y181C,-,<1 µM
O=C(CSc1nnc(Br)n1-c1ccc(C2CC2)c2ccccc12)Nc1ccc(C(=O)O)cc1Cl,IC50,nucleotide incorporation / radiometric,RT-Y188L,-,0.05–0.1 µM